The series deals with E. granulosus PSCs.

Where two headings read alike, the source gives them in different places.

On to `CC(=O)[O][Hg][c]1cc(C(C)(C)CC(C)(C)C)ccc1O` [ACETOMEROCTOL], for which the mortality (usually the percentage killed) runs as follows: (0.5 µM) 0%; (2 µM) 0%; (10 µM) 70%; (50 µM) 100%.
Consider `CC(=O)OC[C@H]1O[C@@H]([S-])[C@H](OC(C)=O)[C@@H](OC(C)=O)[C@@H]1OC(C)=O.CCP(CC)CC.[Au+]` [Auranofin], for which the mortality worked out at 0% (0.5 µM), 0% (2 µM), 100% (10 µM) and 100% (50 µM).
Take `C1C[S][Bi-]2([S]1)[S]CC[S]2` [Bismuth ethanedithiol]: the mortality (0.5 µM) is 0%, the mortality (2 µM) came to 0%, the mortality (10 µM) worked out at 100% and the mortality (50 µM) was 100%.
On to Elaiophylin, for which the “Anti-echinicoccus activity, Dose confirmaiton 0.5uM” value stood at 0; the “Anti-echinicoccus activity, Dose confirmaiton 2uM” value was 0; the “Anti-echinicoccus activity, Dose confirmaiton 10uM” value is 100; the “Anti-echinicoccus activity, Dose confirmaiton 50uM” value is recorded as 100. For the same molecule, the “Anti-echinicoccus activity, Initiate hits 50uM” value is reported as 100.
For the molecule MI-2 [MI-2 (MALT1 inhibitor)], the “Anti-echinicoccus activity, Initiate hits 50uM” value (primary screen, 50 μM, PSCs, 3-day incubation, PI staining (death rate of PSCs)) came to 100. For the same molecule, the “Anti-echinicoccus activity, Dose confirmaiton 0.5uM” value (second-stage dose-response, 0.5 μM, PSCs) turned out to be 0. The “Anti-echinicoccus activity, Dose confirmaiton 2uM” value (second-stage dose-response, 2 μM, PSCs) is 0. Further, the “Anti-echinicoccus activity, Dose confirmaiton 10uM” value (second-stage dose-response, 10 μM, PSCs) is on record as 100. The “Anti-echinicoccus activity, Dose confirmaiton 50uM” value (second-stage dose-response, 50 μM, PSCs) stood at 100.
Take incyclinide: the mortality is, setting by setting: (0.5 µM) 0%; (2 µM) 0%; (10 µM) 0%; (50 µM) 100%.
Take ispinesib mesylate: the mortality is 0% (0.5 µM), 0% (2 µM), 0% (10 µM) and 100% (50 µM).

(Values after article PMC11370232, “Repurposing of a library for high-content screening of inhibitors against Echinococcus granulosus” (Parasites & Vectors, 2024).)
